# Several values for one entry are separate records, joined by “and”; a condition that tells them apart may be missing. Identical values can stand only once.
# Assays:
# [1] = test system: A/Cambodia/NPH230776/2023
# [2] = test system: A/Pennsylvania/242/2017 (H3N2), PB2-S342R
# [3] = test system: Clade 2.3.2.1c viruses, n = 7
# [4] = test system: A/Cambodia/NPH230032/2023
# [5] = test system: Clade 2.3.4.4b viruses, n = 7
# [6] = test system: A/Illinois/08/2018 (H1N1)pdm09, PA-I38T
# [7] = test system: A/Cambodia/KSH230332/2023
# [8] = test system: A/bald eagle/FL/2022 (H5N1)
# [9] = test system: A/Illinois/08/2018 (H1N1)pdm09
# [10] = test system: A/New Jersey/24/2017 (H3N2)
# [11] = target: NA activity of A/Alabama/03/2020 (H1N1)pdm09, NA-H275Y (Influenza A virus, UniProt A0A0X9QTS2, H275Y)
# [12] = target: NA activity of A/Cambodia/NPH230776/2023 (Influenza A virus (H5N1), UniProt H9E9A5)
# [13] = target: NA activity of B/North Carolina/25/2018 (Vic) (Influenza B virus, UniProt A0A1X9RX69)
# [14] = target: NA activity of A/Illinois/45/2019 (H1N1)pdm09 (Influenza A virus (H1N1)pdm09, UniProt A0A0X9QTS2)
# [15] = target: NA activity of A/Washington/33/2014 (H3N2), NA-E119V (Influenza A virus, UniProt A0A0N7G9M6, E119V)
# [16] = test system: A/Wisconsin/53/2009 (H1N1)pdm09
# [17] = target: NA activity of A/Cambodia/KSH230332/2023 (Influenza A virus, UniProt A0A1L2FNJ6)
# [18] = target: NA activity of A/Cambodia/2311257/2023 (Influenza A virus, UniProt A0A1L2FNJ6)
# [19] = target: NA activity of A/Colorado/139/2024 (Influenza A virus (H5N1), UniProt Q9Q0U7)
# [20] = target: NA activity of A/Cambodia/24020179/2024 (Influenza A virus, UniProt A0A1L2FNJ6)
# [21] = target: NA activity of B/Missouri/12/2018 (Vic), NA-D197E (Influenza B virus, UniProt A0A1X9RX69, D197E)
# [22] = target: NA activity of A/Texas/37/2024 (Influenza A virus, UniProt Q9Q0U7)
# [23] = target: NA activity of A/Colorado/109/2024 (Influenza A virus (H5N1), UniProt Q9Q0U7)
# [24] = target: NA activity of Clade 2.3.4.4b viruses, n = 7 (Influenza A virus, UniProt Q9Q0U7)
# [25] = target: NA activity of A/Chile/25945/2023 (Influenza A virus (H5N1), UniProt Q9Q0U7)
# [26] = target: NA activity of A/Michigan/90/2024 (Influenza A virus (H5N1), UniProt Q9Q0U7)
# [27] = target: NA activity of A/Cambodia/24020155/2024 (Influenza A virus, UniProt A0A1L2FNJ6)
# [28] = target: NA activity of A/California/134/2024 (Influenza A virus, UniProt Q9Q0U7)
# [29] = target: NA activity of A/Colorado/137/2024 (Influenza A virus (H5N1), UniProt Q9Q0U7)
molecule,measurement,setting,value
O=C(O)[C@H]1C2CCC(CC2)[C@@H]1Nc1nc(-c2c[nH]c3ncc(F)cc23)ncc1F,EC50,A/Cambodia/24020179/2024,0.45 nM
same,EC50,[1],0.37 nM
same,EC50,[2],99.5 nM
same,EC50,A/Cambodia/2311257/2023,0.4 nM
same,EC50,[3],0.4 nM
same,EC50,[4],0.06 nM
same,EC50,[5],1.32 nM
same,EC50,[6],0.49 nM
same,EC50,A/Texas/37/2024,1.66 nM
same,EC50,A/Cambodia/24020155/2024,0.91 nM
same,EC50,[7],0.34 nM
same,EC50,A/Chile/25945/2023,0.73 nM
same,EC50,[8],0.46 nM
same,EC50,A/Colorado/109/2024,1.32 nM
same,EC50,A/California/134/2024,1.03 nM
same,EC50,[9],0.93 nM
same,EC50,A/Colorado/137/2024,1.51 nM
same,EC50,A/Cambodia/2302009/2023,0.07 nM
same,EC50,A/Michigan/90/2024,1.48 nM
same,EC50,[10],0.6 nM
same,EC50,A/Colorado/139/2024,1.19 nM
CC(N)C12CC3CC(CC(C3)C1)C2 (centres unmarked),Mean EC50 ±SD,A/Cambodia/24020179/2024,0.00725 ± 0.00296 µg/mL
same,Mean EC50 ±SD,[1],0.01227 ± 0.00779 µg/mL
same,Mean EC50 ±SD,A/Cambodia/2311257/2023,0.01297 ± 0.00174 µg/mL
same,Mean EC50 ±SD,A/Texas/37/2024,0.00657 ± 0.00171 µg/mL
same,Mean EC50 ±SD,[7],0.00984 ± 0.00228 µg/mL
same,Mean EC50 ±SD,A/Chile/25945/2023,0.0167 ± 0.00671 µg/mL
same,Mean EC50 ±SD,[8],0.00836 ± 0.00199 µg/mL
same,Mean EC50 ±SD,A/Colorado/109/2024,0.00422 ± 2e-05 µg/mL
same,Mean EC50 ±SD,A/California/134/2024,0.00428 ± 0.0006 µg/mL
same,Mean EC50 ±SD,A/Colorado/137/2024,0.00661 ± 0.00057 µg/mL
same,Mean EC50 ±SD,A/Michigan/90/2024,0.00806 ± 0.00154 µg/mL
same,Mean EC50 ±SD,A/Chile/25945/2023 clone,0.007 µg/mL and 0.0069 ± 0.00052 µg/mL
same,Mean EC50 ±SD,A/Colorado/139/2024,0.0053 ± 0.00069 µg/mL
peramivir,IC50,[11],15.8 nM
same,IC50,[12],0.11 nM
same,IC50,[13],0.55 nM
same,IC50,[14],0.05 nM
same,IC50,[15],0.11 nM
NC12CC3CC(CC(C3)C1)C2,Mean EC50 ±SD,A/Cambodia/24020179/2024,0.03473 ± 0.01595 µg/mL
same,Mean EC50 ±SD,[1],0.04327 ± 0.01046 µg/mL
same,Mean EC50 ±SD,A/Cambodia/2311257/2023,0.05973 ± 0.01649 µg/mL
same,Mean EC50 ±SD,[16],0.02549 ± 0.00498 µg/mL
same,Mean EC50 ±SD,A/Texas/37/2024,0.02411 ± 0.00594 µg/mL
same,Mean EC50 ±SD,A/Cambodia/24020155/2024,0.03236 ± 0.01013 µg/mL
same,Mean EC50 ±SD,[7],0.04189 ± 0.01331 µg/mL
same,Mean EC50 ±SD,A/Chile/25945/2023,0.09543 ± 0.01169 µg/mL
same,Mean EC50 ±SD,[8],0.03022 ± 0.01333 µg/mL
same,Mean EC50 ±SD,A/Colorado/109/2024,0.01488 ± 0.00317 µg/mL
same,Mean EC50 ±SD,A/California/134/2024,0.01414 ± 0.00307 µg/mL
same,Mean EC50 ±SD,A/Colorado/137/2024,0.02521 ± 0.003 µg/mL
same,Mean EC50 ±SD,A/Michigan/90/2024,0.0296 ± 0.00452 µg/mL
same,Mean EC50 ±SD,A/Chile/25945/2023 clone,0.027 µg/mL and 0.02673 ± 0.00324 µg/mL
same,Mean EC50 ±SD,A/Colorado/139/2024,0.01765 ± 0.00439 µg/mL
O=C1c2c(O)c(=O)ccn2N([C@@H]2c3ccccc3SCc3c2ccc(F)c3F)[C@@H]2COCCN12,EC50,A/Cambodia/24020179/2024,0.4 nM
same,EC50,[1],0.54 nM
same,EC50,A/Cambodia/2311257/2023,0.62 nM
same,EC50,[3],0.55 nM
same,EC50,[4],0.56 nM
same,EC50,[5],0.83 nM
same,EC50,[6],137 nM
same,EC50,A/Texas/37/2024,1.06 nM
same,EC50,A/Cambodia/24020155/2024,0.54 nM
same,EC50,[7],0.55 nM
same,EC50,A/Chile/25945/2023,0.96 nM
same,EC50,[8],0.42 nM
same,EC50,A/Colorado/109/2024,0.44 nM
same,EC50,A/California/134/2024,0.73 nM
same,EC50,A/Colorado/137/2024,0.95 nM
same,EC50,A/Michigan/90/2024,0.57 nM
same,EC50,A/Colorado/139/2024,0.7 nM
oseltamivir carboxylate,IC50,[17],1.03 nM
same,IC50,[18],0.99 nM
same,IC50,[19],3.51 nM
same,IC50,[20],0.9 nM
same,IC50,[11],201 nM
same,IC50,[21],165 nM
same,IC50,[12],0.74 nM
same,IC50,[22],3.16 nM
same,IC50,[23],3.99 nM
same,IC50,[24],3.61 nM
same,IC50,[13],23.7 nM
same,IC50,[25],2.98 nM
same,IC50,[26],3.65 nM
same,IC50,[14],0.34 nM
same,IC50,[27],0.96 nM
same,IC50,[15],47.3 nM
same,IC50,[28],3.61 nM
same,IC50,[29],3.8 nM

# Reference: publication PMC11950254, “Antiviral Susceptibility of Influenza A(H5N1) Clade 2.3.2.1c and 2.3.4.4b Viruses from Humans, 2023–2024” (2025)
